Compound potency records, mixed from different reports. Data source: NIAID ChemDB in PubChem.

All rows: tests in culture; species: Mycobacterium tuberculosis

An empty or dashed field is not shown. Percent inhibition refers to the dose given; in toxicity tests it is the harm to the cells. MIC bound comes from a single tested concentration. Lines come from different laboratories, so protocols vary. MIC50, MIC90 and the like: level of inhibition, or share of isolates inhibited. a–b is a range or a potency band. ECn is the concentration giving n% inhibition of infection, replication or growth.

SMILES | endpoint | changes | read by | dose | strain or isolate | cells | result
CC(C)[C@H]1CC[C@@H]2[C@]1(C)CC(=O)[C@@]1(C)CC[C@@](C)(O)[C@@H]3C[C@@]231 | MIC | - | resazurin | - | CIBIN 99 | - | 25 µg/mL
O=C1NC2(CCCCC2)N=C2C(Cl)CCCC12Cl | inhibition | - | BACTEC | 12.5 µg/mL | H37Rv | - | -4%
O=C(Nc1ncn[nH]1)c1cc(Br)ccc1O | MIC | - | - | - | My 331/88 | - | 500 µM
CC(C)[C@H]1CO[C@]23CC[C@H](N(Cc4ccc(C(F)(F)F)cc4)C4CN(CCF)C4)C[C@H]2CCC(=O)N13 | MIC | - | resazurin | - | - | - | <0.5 µM
CCc1nc(NCCCc2ccccc2)c2cc(C)sc2n1 | EC50 | qcrCAB A178T | resazurin | - | Erdman | - | >0.5 µM
Cc1cc(NC(=O)c2ccccc2O)no1 | MIC | - | - | - | My 331/88 | - | 16 µM
CCOC(=O)Cc1csc(NC(=O)C(C)SC(=S)N(CC)CC)n1 | MIC | - | - | - | H37Rv | - | >156 µg/mL
CCc1nc(NCCc2ccccc2)c2cc(C)sc2n1 | EC50 | - | resazurin | - | Erdman | - | 0.15 µM
CC(C)(C)C1CCc2c(sc(NC(=S)NC(=O)c3ccccc3)c2C#N)C1 | MIC | - | MTT | - | H37Rv | - | 31 µM
NNC(=O)c1nc2ccccc2[nH]1 | MIC bound | - | BACTEC | - | H37Rv | - | ≤12.5 µg/mL
CCCCCCCCCOc1ccccc1NC(=O)OCC[NH+]1CCCC1 | MIC | - | - | - | My 331/88 | - | 16 µM
COC(=O)[C@]12CC[C@@]3(COC(C)=O)CC4OOC(C=C4C)[C@H]3[C@@H]1CC[C@@H]2C(C)C | MIC | - | resazurin | - | CIBIN 99 | - | 50 µg/mL
CC(C)[C@H]1CO[C@]23CC[C@H](N(CCCF)Cc4ccc(C(F)(F)F)cc4)C[C@H]2CCC(=O)N13 | MIC | - | resazurin | - | - | - | <0.5 µM
CO[C@H]1/C=C/O[C@@]2(C)Oc3c(C)c(O)c4c(O)c(c(/C=N/N=C/N5CCCCC5)c(O)c4c3C2=O)NC(=O)/C(C)=C\C=C\[C@H](C)[C@H](O)[C@@H](C)[C@@H](O)[C@@H](C)[C@H](OC(C)=O)[C@@H]1C | MIC | - | - | - | isolates 2 | - | >200 µg/mL
C[C@]12CC/C(=N/NC(=O)c3ccncc3)C[C@@H]1CC[C@@H]1[C@@H]2CC[C@]2(C)[C@@H](O)CC[C@@H]12 | MIC | - | - | - | H37Rv | VERO | 0.025 µg/mL
COC(=O)c1ccccc1S(=O)(=O)NC(=O)Nc1nc(C)cc(C)n1 | MIC | - | - | - | ATCC35801 | - | 3.6 µg/mL
CCC(CO)C(=O)c1ccc(OCc2ccccc2)cc1O | MIC | - | fluorescence | - | H37Rv | - | 25 µg/mL
CCN1CCc2c(sc(NC(=O)c3c(F)c(F)c(F)c(F)c3F)c2C(N)=O)C1 | EC50 | - | turbidity | - | ATCC 35838 RIF-R2 rifampicin-resistant | - | 1.9 µM
CC1=CCC2=C3CC[C@H](C(C)C)[C@@]3(C)CC(=O)[C@@]2(C)CC1 | MIC | - | resazurin | - | CIBIN 99 | - | 50 µg/mL
CCNC(=O)c1c(NC(=O)c2c(F)c(F)c(F)c(F)c2F)sc2c1CCN(CC)C2 | MIC | - | turbidity | - | ATCC 35822 | - | 11 µM
COc1ccc(C(=O)Nc2cnccn2)c(O)c1 | MIC | - | - | - | My 331/88 | - | 16 µM
CCCCCCCOc1ccccc1NC(=O)OCCN(C)C | MIC | - | - | - | My 331/88 | - | 16 µM
CCc1nc2ccc(Cl)cn2c1C(=O)NCc1ccc(N2CCC(c3ccc(OC(F)(F)F)cc3)CC2)cc1 | EC50 | cydA | resazurin | - | Erdman | - | 0.00013 µM
O=C(c1ccccc1)N1N=CCCC1O | MIC | - | BACTEC | - | H37Rv | - | ≥12.5 µg/mL
CCOC(=O)Cc1csc(NC(=O)C(SC(=S)N2CCC(C)CC2)c2ccccc2)n1 | MIC | - | - | - | H37Rv | - | >156 µg/mL
COc1cc(/C=C2/C(=O)NN(c3ccc(Cl)cc3)C2=O)cc([N+](=O)[O-])c1O | MIC | - | MTT | - | mc4914 | - | 3.2 µM
CCOC(=O)Cc1csc(NC(=O)CSC(=S)N2CCN(C)CC2)n1 | MIC | - | - | - | H37Rv | - | >156 µg/mL
O=c1c(O)c(-c2ccc(O)c(O)c2)oc2c(O[C@@H]3O[C@H](CO)[C@@H](O)[C@H](O)[C@H]3O)c(O)cc(O)c12 | inhibition | - | BACTEC | 12.5 µg/mL | H37Rv | - | 0%
CC1COc2c(N3CCN(C)CC3)c(F)cc3c(=O)c(C(=O)O)cn1c23 | MIC | - | - | - | H37Rv | - | 1.25 µg/mL
Cc1ccc(-c2cnc(Nc3cccc(OCCCN(C)C)c3)c(C(N)=O)n2)cc1F | MIC | - | resazurin | - | H37Rv (ATCC 27294) | - | 0.7 µg/mL
CCCCOc1ccccc1NC(=O)OCCN1CCOCC1 | MIC | - | - | - | My 331/88 | - | 250 µM
CC(C)[C@H]1CO[C@]23CC[C@H](NCc4cc(C(F)(F)F)nc5ccccc45)C[C@H]2CCC(=O)N13 | MIC | - | resazurin | - | - | - | <0.5 µM
COc1ccc(OC)c2[nH]c(CCc3nc4c(OC)ccc(OC)c4[nH]3)nc12 | inhibition | - | BACTEC | 12.5 µg/mL | H37Rv | - | 0%
O=C(Nc1cncs1)c1ccccc1O | MIC | - | - | - | My 331/88 | - | 62.5 µM
CCOC(=O)c1c(NC(=O)c2c(F)c(F)c(F)c(F)c2F)sc2c1CCOC2 | MIC | - | turbidity | - | ATCC35838 | - | 0.23 µM
CC(C)[C@H]1CO[C@]23CC[C@@H](N(CCCC(F)(F)F)Cc4ccc(C(F)(F)F)cc4)C[C@H]2CCC(=O)N13 | MIC | - | resazurin | - | - | - | 0.5–5 µM
CC(C)(C)C1CCc2c(sc3nc(=S)[nH]c(N)c23)C1 | MIC | - | MTT | - | H37Rv | - | 160 µM
COc1cc2c(cc1OC)C13CCCC4(OCCO4)C1=CC2(C)O3 | MIC bound | - | BACTEC | - | H37Rv | - | >12.5 µg/mL
C=C(CN[C@H]1CC[C@]23OC[C@H](C(C)C)N2C(=O)CC[C@@H]3C1)c1ccc(C(F)(F)F)cc1 | MIC | - | resazurin | - | - | - | 0.5–5 µM
CCOC(=O)Cc1csc(NC(=O)CSC(=S)N(CC)c2ccccc2)n1 | MIC | - | - | - | H37Rv | - | >156 µg/mL
CCOC(CNCc1cc(C)c2[nH]c3ccccc3c2c1C)OCC | inhibition | - | BACTEC | 12.5 µg/mL | H37Rv | - | 67%
Cc1csc(NC(=O)c2cc(Cl)ccc2O)n1 | MIC | - | - | - | My 331/88 | - | 62.5 µM
NNC(=O)CNc1ccccc1Br | MIC | - | BACTEC | - | H37Rv | - | ≥12.5 µg/mL
CCN1CCc2c(sc(NC(=O)c3c(F)c(F)c(F)c(F)c3F)c2C(=O)NC)C1 | EC90 | - | turbidity | - | ATCC35838 | - | 3.3 µM
O=C(Nc1cnccn1)c1ccccc1O | MIC | - | - | - | My 331/88 | - | 125 µM
CCOC(=O)c1c(NC(C)=O)sc2c1CCN(C(=O)OC(C)(C)C)C2 | MIC | - | resazurin | - | H37Rv | - | >100 µg/mL
CCCCCOc1ccc(NC(=O)OCCN(C)C)cc1 | MIC | - | - | - | My 331/88 | - | 62.5 µM
C[n+]1c(-c2ccc(/C=N/NC(=O)c3ccc(C(=O)N/N=C/c4ccc(-c5cn6ccccc6[n+]5C)cc4)nc3)cc2)cn2ccccc21.Cc1ccc(S(=O)(=O)[O-])cc1.Cc1ccc(S(=O)(=O)[O-])cc1 | MIC bound | - | BACTEC | - | H37Rv | - | >12.5 µg/mL
N#Cc1c(NC(=O)c2c(F)c(F)c(F)c(F)c2F)sc2c1CCOC2 | EC50 | - | turbidity | - | ATCC 35822 | - | 4.3 µM
CC(=O)O[C@H]1C[C@]2(C)[C@@H](C(C)C)CC[C@H]2[C@]23C[C@H]2[C@@H](O)CC[C@]13C | MIC | - | resazurin | - | H37Rv | - | 100 µg/mL
CC(C)c1ccc(O)c(=O)cc1 | MIC bound | - | BACTEC | - | H37Rv | - | >12.5 µg/mL
CO[C@H]1/C=C/O[C@@]2(C)Oc3c(C)c(O)c4c(O)c(c(/C=N/N5CCN(C)CC5)c(O)c4c3C2=O)NC(=O)/C(C)=C\C=C\[C@H](C)[C@H](O)[C@@H](C)[C@@H](O)[C@@H](C)[C@H](OC(C)=O)[C@@H]1C | MIC99 | 526Leu | - | - | - | - | ≥640 µg/mL
CCc1nc(N2CCCCC2)c2cc(C)sc2n1 | EC50 | - | resazurin | - | Erdman | - | 49 µM
CCOC(=O)Cc1csc(NC(=O)C(SC(=S)N2CCCCC2)c2ccccc2)n1 | MIC | - | - | - | H37Rv | - | >156 µg/mL
COC(=O)c1ccc(/C=C2\N=C(c3ccc(F)cc3)OC2=O)cc1 | MIC | - | MTT | - | H37Rv | - | 38.5 µM
N/C(COc1ccc(Cl)cc1)=N/NC(=O)c1ccncc1 | MIC | - | - | - | ATCC 35820 (streptomycin-resistant) | - | 6.25 µg/mL
CS(=O)(=O)OC1COC(c2ccccc2)OC1C1OC(c2ccccc2)OC2COC(c3ccccc3)OC21 | inhibition | - | BACTEC | 12.5 µg/mL | H37Rv | - | -59%
CCc1nc(NC(C(=O)O)C(C)C)c2cc(C)sc2n1 | EC50 | qcrCAB | resazurin | - | Erdman | - | 1.7 µM
Cc1csc(N2C(=O)c3cccc4cccc(c34)C2=O)n1 | MIC bound | - | resazurin | - | H37Rv | - | >6.25 µg/mL
CCOC(=O)Cc1csc(NC(=O)C(SC(=S)N2CCC(Cc3ccccc3)CC2)c2ccccc2)n1 | MIC | - | - | - | H37Rv | - | >156 µg/mL
CN(C)CCCOc1cccc(Nc2ncc(-c3cncnc3)nc2C(N)=O)c1 | MIC | - | resazurin | - | H37Rv (ATCC 27294) | - | >32 µg/mL
CN=S(=O)(CC1(O)CC2OC1C1OC(C)(C)OC21)c1ccccc1 | MIC bound | - | BACTEC | - | H37Rv | - | >12.5 µg/mL
NNC(=O)c1ccncc1 | MIC90 | - | - | - | 19 strains | - | 0.1 µg/mL
COc1ccc2c(c1OC)[C@H]1N(C)CCc3cc4c(cc3[C@@]1(OC)C2=O)OCO4 | inhibition | - | BACTEC | 12.5 µg/mL | H37Rv | - | 13%
CCN1CCc2c(sc(NC(=O)c3c(F)c(F)c(F)c(F)c3F)c2C#N)C1 | EC90 | - | turbidity | - | ATCC 35822 | - | 22 µM
Cc1ccc(-c2cnc(Nc3cnc(OCCCN4CCN(C)CC4)nc3)c(C(N)=O)n2)cc1F | MIC | - | resazurin | - | H37Rv (ATCC 27294) | - | 0.5 µg/mL
Cc1cccc(OC/C(N)=N\NC(=O)c2ccncc2)c1 | MIC | - | - | - | ATCC 35822 (isoniazid-resistant) | - | 100 µg/mL
CCCCCCCCCCOc1cccc(NC(=O)OCCN2CCOCC2)c1 | MIC | - | - | - | My 331/88 | - | 32 µM
CC(=O)NNc1nc(C)c(C(=O)NNC(=O)C(=O)Nc2c([N+](=O)[O-])ccc(C)c2C)s1 | MIC bound | - | resazurin | - | H37Rv | - | >6.25 µg/mL
O=C1CC(C2c3ccccc3-c3ccccc32)C(=O)N1Cc1ccccc1 | MIC | - | - | - | H37Rv | - | 45.3 µM
c1ccc(-c2ccc(-c3ccc(C4=NCCN4)cc3)o2)cc1 | inhibition | - | BACTEC | 12.5 µg/mL | H37Rv | - | 99%
Cc1csc(NC(=O)c2cc(Br)ccc2O)n1 | MIC | - | - | - | My 331/88 | - | 125 µM
CC(=O)O[C@H]1C[C@@]2(C)C(=C3CC=C(C)CC[C@@]31C)CC[C@@H]2C(C)C | MIC | - | resazurin | - | CIBIN 99 | - | 100 µg/mL
Cc1ccc(C(=O)Nc2nc(C)cc(C)n2)c(O)c1 | MIC | - | - | - | My 331/88 | - | 62.5 µM
O=C1C=C(Nc2ncccn2)c2ccccc2C1=O | MIC | - | resazurin | - | H37Rv | - | 3.13 µg/mL
Cc1ccc(-c2cnc(Nc3cccc(OCCCN(C)C)c3)c(C(N)=O)n2)cc1Cl | MIC | - | resazurin | - | H37Rv (ATCC 27294) | - | 2 µg/mL
CCOC(=O)Nc1cc(Cl)c2nnn(C(=O)OCC)c2n1 | MIC bound | - | BACTEC | - | H37Rv | - | >12.5 µg/mL
CC(C)[C@H]1CO[C@]23CC[C@H](N(Cc4ccc(C(F)(F)F)cc4)C4CN(C(=O)OC(C)(C)C)C4)C[C@H]2CCC(=O)N13 | MIC | - | resazurin | - | - | - | <0.5 µM
N/C(COc1cccc(Cl)c1)=N/NC(=O)c1ccncc1 | MIC | - | - | - | ATCC 35820 (streptomycin-resistant) | - | 3.12 µg/mL
COc1ccc(C(=O)Nc2nc(C)cs2)c(O)c1 | MIC | - | - | - | My 331/88 | - | 125 µM
CC(=O)Nc1c2sscc-2n(C)c1=O | MIC bound | - | BACTEC | - | H37Rv | - | ≤128 µg/mL
CC(C)[C@H]1CO[C@]23CC[C@H](N(Cc4ccc(C(F)(F)F)cc4)CC4COC4)C[C@H]2CCC(=O)N13 | MIC | - | resazurin | - | - | - | <0.5 µM
CN(C)CCCOc1ccc(Nc2ncc(-c3cccc(F)c3)nc2C(N)=O)cc1 | MIC | - | resazurin | - | H37Rv (ATCC 27294) | - | 16 µg/mL